Compound potency records, mixed from different reports. Data source: NIAID ChemDB in PubChem.

Shared fields: tests in culture; species: Mycobacterium tuberculosis

Rows are shuffled and stem from different studies. Percent inhibition refers to the dose given; in toxicity tests it is the harm to the cells. MIC bound comes from a single tested concentration. ECn is the concentration giving n% inhibition of infection, replication or growth. An empty or dashed field is not shown.

smiles | tested at | read-out | method | strain or isolate | value
N/C(=N\N=C\c1ccc(Br)cc1)c1ccncc1 | - | MIC | - | H37Rv | 16 µg/mL
CO[C@H]1/C=C/O[C@@]2(C)Oc3c(C)c(O)c4c(O)c(c(/C=N/N5CCN(C)CC5)c(O)c4c3C2=O)NC(=O)/C(C)=C\C=C\[C@H](C)[C@H](O)[C@@H](C)[C@@H](O)[C@@H](C)[C@H](OC(C)=O)[C@@H]1C | - | MIC | - | Harlingen (Ser522Leu) | >16 µg/mL
CC(C)=CCO[C@@H]1[C@@H](O)C(C)(C)C[C@H]2C3=CC[C@@H]4[C@]56CCC(O)(OC5)C(C)(C)[C@@H]6CC[C@@]4(C)[C@]3(C)CC[C@@]12C(=O)O | - | MIC | - | H37Rv | >75 µg/mL
CCO/N=C1\C(=O)N(CCOCCN2C(=O)/C(=N/OCC)c3ccccc32)c2ccccc21 | - | MIC | resazurin | H37Rv | >32 µg/mL
O=C(c1ccc(N2CCN(c3cccc(Cl)c3Cl)CC2)cc1)C1CC1c1ccc(Cl)cc1 | - | MIC | broth dilution / agar | H37Rv | >12.5 µg/mL
COc1ccc(-c2oc3c(CC=C(C)C)c(OC4OC(CO)C(O)C(O)C4O)cc(O)c3c(=O)c2OC2OC(C)C(O)C(O)C2O)cc1 | 200 µM | inhibition | fluorescence | - | 74.34%
CO[C@H]1/C=C/O[C@@]2(C)Oc3c(C)c(O)c4c(O)c(c(/C=N/N5CCN(C)CC5)c(O)c4c3C2=O)NC(=O)/C(C)=C\C=C\[C@H](C)[C@H](O)[C@@H](C)[C@@H](O)[C@@H](C)[C@H](OC(C)=O)[C@@H]1C | - | MIC | - | 9120 | ≥2 µg/mL
Clc1ccc(CSc2ncn[nH]2)cc1 | - | MIC | - | My 331/88 | 500 µM
CC(C)=CCCC(C)(OC1OC(CO)C(O)C(O)C1O)C1CCC2(C)C1C(O)CC1C3(C)CCC(O)C(C)(C)C3C(OC3OC(CO)C(O)C(O)C3OC3OCC(O)C(O)C3O)CC12C | 200 µM | inhibition | fluorescence | - | 0%
COc1ccc(OC)c(/C=N/N=C(\N)c2ccncc2)c1 | - | MIC | - | 1054 | 256 µg/mL
FC(F)(F)c1cc(CSc2ncn[nH]2)cc(C(F)(F)F)c1 | - | MIC | - | My 331/88 | 125 µM
COc1ccc(-c2cc(=O)c3c(O)cc(O)cc3o2)cc1O | - | MIC | - | H37Rv | >128 µg/mL
N/C(=N\N=C\c1cccc(Br)c1)c1ccncc1 | - | MIC | - | H37Rv | 16 µg/mL
Cc1c(OCC(F)(F)F)cc[n+]([O-])c1CSc1nc2ccccc2[nH]1 | - | EC50 | broth dilution / resazurin | Erdman | 25 µM
COc1cc([C@@H]2OC[C@@]3(O)[C@@H]2CO[C@H]3c2ccc(O)c(OC)c2)ccc1O | - | MIC | - | H37Rv | 127 µg/mL
CC[C@H]1OC(=O)[C@H](C)[C@@H](O[C@H]2C[C@@](C)(OC)[C@@H](O)[C@H](C)O2)[C@H](C)[C@@H](O[C@@H]2O[C@H](C)C[C@H](N(C)C)[C@H]2O)[C@](C)(OC)C[C@@H](C)C(=O)[C@H](C)[C@@H](O)[C@]1(C)O | - | MIC | - | 84396 | >4 µg/mL
O=C(/C=C/c1cccc(F)c1)NNC(=O)c1ccncc1 | - | MIC | resazurin | H37Rv | 72.6 µM
Cc1cc(O)c2c(c1)C(=O)C(c1c(C)cc3c(c1O)C(=O)C=CC3=O)=CC2=O | - | MIC | - | C84 (streptomycin- isoniazid- ethambutol-resistant) | 100 µg/mL
FC(F)(F)c1ccc(CSc2ncn[nH]2)cc1 | - | MIC | - | My 331/88 | 250 µM
CO/N=C1\C(=O)N(CCOCCN2C(=O)/C(=N/OC)c3cc(Cl)ccc32)c2ccc(Cl)cc21 | - | MIC | resazurin | H37Rv | >32 µg/mL
COc1ccc2nc(S(=O)Cc3ncc(C)c(OC)c3C)[nH]c2c1 | - | EC50 | broth dilution / resazurin | Erdman | >50 µM
CCCCCCCC/C=C\CCCCCCCCNc1ccc(C(=O)C2CC2c2ccc(Cl)cc2)cc1 | - | MIC | broth dilution / agar | H37Rv | >12.5 µg/mL
C=CCc1ccc(O)c(OC)c1 | - | MIC | absorbance | H37Ra | 256 µg/mL
O=C(/C=C/c1ccc(O)cc1)NNC(=O)c1ccncc1 | - | MIC | resazurin | H37Rv | 26.4 µM
CCN(CC)c1ccc(N=C2C=CC(=O)C(NC(C)=O)=C2)c(C)c1 | - | MIC bound | BACTEC | H37Rv | ≤12.5 µg/mL
C[C@H]1[C@H](C)Oc2c3c(c4c(-c5ccccc5)cc(=O)oc4c2[C@H]1O)OC(C)(C)C=C3 | - | MIC | BACTEC | H37Rv | <12.5 µg/mL
N/C(=N\N=C\c1ccc(Cl)cc1)c1ccncc1 | - | MIC | - | 1342 | 32 µg/mL
C=C(C)[C@@H]1CC[C@]2(C(=O)O)CC[C@]3(C)C(CCC4[C@@]5(C)CC[C@H](O)C(C)(C)C5CC[C@]43C)C12 | - | MIC | - | H37Rv | 62.1 µg/mL
O=C(/C=C/c1cc(F)cc(F)c1)NNC(=O)c1ccncc1 | - | MIC | resazurin | H37Rv | 55.8 µM
COc1cc([C@H]2OC[C@]3(O)[C@@H](c4ccc(O)c(OC)c4)OC[C@]23O)ccc1O | - | MIC | - | H37Rv | >128 µg/mL
O=[N+]([O-])c1cccc(F)c1CSc1ncn[nH]1 | - | MIC | - | My 331/88 | 1000 µM
CCCCNc1ccc(C(=O)C2CC2c2ccc(Cl)cc2)cc1 | - | MIC | broth dilution / agar | H37Rv | >12.5 µg/mL
NC(=O)N=Nc1c(O)n(CCOCCn2c(O)c(N=NC(N)=O)c3ccccc32)c2ccccc12 | - | MIC | resazurin | H37Rv | 27.4 µg/mL
Clc1ccc(CSc2ncn[nH]2)cc1Cl | - | MIC | - | My 331/88 | 1000 µM
Cc1ccc(/C=N/N=C(\N)c2ccncc2)cc1 | - | MIC | - | H37Rv | 8 µg/mL
CCCCCCCCCCCCCCCCNc1ccc(C(=O)C2CC2c2ccc(Cl)cc2)cc1 | - | MIC | broth dilution / agar | H37Rv | >12.5 µg/mL
CC(=O)Nc1ccc2c(c1)[nH]c1ncc(Nc3ccccc3)cc12 | - | MIC | resazurin | H37Rv | 8 µg/mL
COc1cccc(C(c2ccc(OCCN(C)C)cc2)c2cc3ccccc3c3ccccc23)c1 | - | MIC | - | H37Rv | >25 µg/mL
COc1ccnc(CS(=O)c2nc3ccc(OC(F)F)cc3[nH]2)c1OC | - | EC50 | broth dilution / resazurin | Erdman | >50 µM
O=C1C(=O)N(CCOCCN2C(=O)C(=O)c3cc(F)ccc32)c2ccc(F)cc21 | - | MIC | resazurin | H37Rv | >32 µg/mL
Cc1ccc(/C=N/N=C(\N)c2ccncc2)c(C)c1 | - | MIC | - | 1342 | 8 µg/mL
Cn1cnnc1SCc1ccc(Cl)cc1 | - | MIC | - | My 331/88 | 1000 µM
C[C@H]1[C@H](C)CC[C@]2(C(=O)O)CC[C@]3(C)C(=CC[C@@H]4[C@@]5(C)CC[C@H](O)C(C)(C)[C@@H]5CC[C@]43C)[C@H]12 | - | MIC | - | H37Rv | 41.9 µg/mL
CC1CCC2(C(=O)OC3OC(COC4OC(CO)C(OC5OC(C)C(O)C(O)C5O)C(O)C4O)C(O)C(O)C3O)CCC3(C)C(=CCC4C5(C)CC(O)C(O)C(C)(CO)C5C(O)CC43C)C2C1C | 200 µM | inhibition | fluorescence | - | 0%
Clc1ccccc1CSc1ncn[nH]1 | - | MIC | - | My 331/88 | 500 µM
COc1cc(-c2cc(=O)c3c(O)cc(O)cc3o2)cc(OC)c1O | - | MIC | - | H37Rv | 58.5 µg/mL
c1ccc(CSc2ncn[nH]2)cc1 | - | MIC | - | My 331/88 | 1000 µM
O=C(O)C1OC(Oc2cc3oc(-c4ccccc4)cc(=O)c3c(O)c2O)C(O)C(O)C1O | 200 µM | inhibition | fluorescence | - | 78.47%
CCCCCCCCCCCCNc1ccc(C(=O)C2CC2c2ccc(Cl)cc2)cc1 | - | MIC | broth dilution / agar | H37Rv | >12.5 µg/mL